Measured values as given in patent publication US20150223453A1, “QUATERNARY AMMONIUM ACID COMPOUNDS AND COMPOSITIONS FOR DISINFECTION, SANITIZATION, AND CLEANING” (LONZA INC., priority 2014, published 2015).

assay: Corrosion on Steel; settings: 1000 ppm of active, steel submerged for 24 hours

Compared with `CCCCCCCCCC[N+](C)(C)CCCCCCCCCC.[Cl-]` [Dialkyl quaternary ammonium chloride], Alkyl dimethyl benzyl ammonium chloride is lower in “% Change” value: 0.05835% for the first, 0.05814% for the second.

For Dialkyl quaternary ammonium acetate, the “% Change” value was 0.000001789%.

Going from `CCCCCCCCCC[N+](C)(C)CCCCCCCCCC.[Cl-]` [Dialkyl quaternary ammonium chloride] to Alkyl dimethyl benzyl ammonium chloride, the “Total Weight Difference” value rises from 0.0104 g to 0.0105 g.

In the case of Dialkyl quaternary ammonium acetate, the “Total Weight Difference” value is reported as 0.0032 g.
